Source: US20160264649A1 (published 2016)

Tests used:
Assay in all cases: cell-based or functional assay
[1] = molecular target: HIV-1 Env of isolate MG RM-C-005 (HIV-1)
[2] = molecular target: HIV-1 Env of isolate MG RM-C-006 (HIV-1)
[3] = molecular target: HIV-1 Env of isolate MG RM-C-007 (HIV-1)
[4] = molecular target: HIV-1 Env of isolate MG RM-C-002 (HIV-1)
[5] = molecular target: HIV-1 Env of isolate MG RM-C-001 (HIV-1)
[6] = molecular target: HIV-1 Env of isolate MG RM-C-004 (HIV-1)
[7] = molecular target: HIV-1 Env of isolate MG RM-C-015 (subtype C) (HIV-1)
[8] = molecular target: HIV-1 Env of isolate MG RM-C-013 (subtype C) (HIV-1)
[9] = molecular target: HIV-1 Env of isolate MG RM-C-017 (subtype C) (HIV-1)
[10] = molecular target: HIV-1 Env of isolate MG RM-C-014 (subtype C) (HIV-1)
[11] = molecular target: HIV-1 Env of isolate MG RM-C-009 (subtype C) (HIV-1)
[12] = molecular target: HIV-1 Env of isolate MG RM-C-012 (subtype C) (HIV-1)
[13] = molecular target: HIV-1 Env of isolate MG RM-C-008 (subtype C) (HIV-1)
[14] = molecular target: HIV-1 Env of isolate MG RM-C-010 (subtype C) (HIV-1)

B1: PGT-130 monoclonal antibody (5147_N06) (antibody, V domains shown)
VH: QVQLQESGPGLVKPAETLSLTCSVSGESINTGHYYWGWVRQVPGKGLEWIGHIHYTTAVLHNPSLKSRLTIKIYTLRNQITLRLSNVTAADTAVYHCVRSGGDILYYYEWQKPHWFSPWGPGIHVTVSS
VL: QSALTQPPSASGSLGQSVTISCNGTSSDIGGWNFVSWYQQFPGRAPRLIIFEVNKRPSGVPGRFSGSKSGNSASLTVSGLQSDDEGQYFCSSLFGRWDVVFGGGTKLTVL
[1]
  neutralization IC50: 0.935 mg/L
[2]
  neutralization IC50: 0.095 mg/L
[3]
  neutralization IC50: > 50 mg/L
[4]
  neutralization IC50: > 50 mg/L
[5]
  neutralization IC50: > 50 mg/L
[6]
  neutralization IC50: 2.76 mg/L

B2: 5147_N06 (PGT-130) (antibody, V domains shown)
VH: QVQLQESGPGLVKPAETLSLTCSVSGESINTGHYYWGWVRQVPGKGLEWIGHIHYTTAVLHNPSLKSRLTIKIYTLRNQITLRLSNVTAADTAVYHCVRSGGDILYYYEWQKPHWFSPWGPGIHVTVSS
VL: QSALTQPPSASGSLGQSVTISCNGTSSDIGGWNFVSWYQQFPGRAPRLIIFEVNKRPSGVPGRFSGSKSGNSASLTVSGLQSDDEGQYFCSSLFGRWDVVFGGGTKLTVL
[7]
  IC50: 0.344 mg/L
[8]
  IC50: > 50 mg/L
[9]
  IC50: > 50 mg/L
[10]
  IC50: > 50 mg/L
[11]
  IC50: > 50 mg/L
[12]
  IC50: > 50 mg/L
[13]
  IC50: 7.28 mg/L
[14]
  IC50: > 50 mg/L

B3: PGT-128 monoclonal antibody (5114_A19) (antibody, V domains shown)
VH: QPQLQESGPTLVEASETLSLTCAVSGDSTAACNSFWGWVRQPPGKGLEWVGSLSHCASYWNRGWTYHNPSLKSRLTLALDTPKNLVFLKLNSVTAADTATYYCARFGGEVLRYTDWPKPAWVDLWGRGTLVTVSS
VL: QSALTQPPSASGSPGQSITISCTGTSNNFVSWYQQHAGKAPKLVIYDVNKRPSGVPDRFSGSKSGNTASLTVSGLQTDDEAVYYCGSLVGNWDVIFGGGTKLTVL
[1]
  neutralization IC50: 0.03 mg/L
[2]
  neutralization IC50: 0.014 mg/L
[3]
  neutralization IC50: 0.111 mg/L
[4]
  neutralization IC50: 0.019 mg/L
[5]
  neutralization IC50: > 50 mg/L
[6]
  neutralization IC50: 0.025 mg/L

B4: 5114_A19 (PGT-128) (antibody, V domains shown)
VH: QPQLQESGPTLVEASETLSLTCAVSGDSTAACNSFWGWVRQPPGKGLEWVGSLSHCASYWNRGWTYHNPSLKSRLTLALDTPKNLVFLKLNSVTAADTATYYCARFGGEVLRYTDWPKPAWVDLWGRGTLVTVSS
VL: QSALTQPPSASGSPGQSITISCTGTSNNFVSWYQQHAGKAPKLVIYDVNKRPSGVPDRFSGSKSGNTASLTVSGLQTDDEAVYYCGSLVGNWDVIFGGGTKLTVL
[7]
  IC50: 0.196 mg/L
[8]
  IC50: > 50 mg/L
[9]
  IC50: 1.06 mg/L
[10]
  IC50: > 50 mg/L
[11]
  IC50: > 50 mg/L
[12]
  IC50: 0.058 mg/L
[14]
  IC50: > 50 mg/L

B5: PGT-135 monoclonal antibody (5343_B08; 5344_E16) (antibody, V domains shown)
VH: QLQMQESGPGLVKPSETLSLSCTVSGDSIRGGEWGDKDYHWGWVRHSAGKGLEWIGSIHWRGTTHYKESLRRRVSMSIDTSRNWFSLRLASVTAADTAVYFCARHRHHDVFMLVPIAGWFDVWGPGVQVTVSS
VL: EIVMTQSPDTLSVSPGETVTLSCRASQNINKNLAWYQYKPGQSPRLVIFETYSKIAAFPARFVASGSGTEFTLTINNMQSEDVAVYYCQQYEEWPRTFGQGTKVDIK
[1]
  neutralization IC50: > 50 mg/L
[2]
  neutralization IC50: > 50 mg/L
[3]
  neutralization IC50: > 50 mg/L
[4]
  neutralization IC50: > 50 mg/L
[5]
  neutralization IC50: 10.1 mg/L
[6]
  neutralization IC50: 0.046 mg/L

B6: 5343_B08 (PGT-135) (antibody, V domains shown)
VH: QLQMQESGPGLVKPSETLSLSCTVSGDSIRGGEWGDKDYHWGWVRHSAGKGLEWIGSIHWRGTTHYKESLRRRVSMSIDTSRNWFSLRLASVTAADTAVYFCARHRHHDVFMLVPIAGWFDVWGPGVQVTVSS
VL: EIVMTQSPDTLSVSPGETVTLSCRASQNINKNLAWYQYKPGQSPRLVIFETYSKIAAFPARFVASGSGTEFTLTINNMQSEDVAVYYCQQYEEWPRTFGQGTKVDIK
[7]
  IC50: 0.104 mg/L
[8]
  IC50: > 50 mg/L
[9]
  IC50: > 50 mg/L
[10]
  IC50: > 50 mg/L
[11]
  IC50: > 50 mg/L
[12]
  IC50: 0.017 mg/L
[13]
  IC50: > 50 mg/L
[14]
  IC50: > 50 mg/L

B7: PGT-136 monoclonal antibody (5329_C19; 5366_P21) (antibody, V domains shown)
VH: QLQLQESGPGLVKPSETLSLTCTVSGGSMRGTDWGENDFHYGWIRQSSAKGLEWIGSIHWRGRTTHYKTSFRSRATLSIDTSNNRFSLTFSFVTAADTAVYYCARHKYHDIFRVVPVAGWFDPWGQGLLVTVSS
VL: EIVMTQSPPTLSVSPGETATLSCRASQNVKNNLAWYQLKPGQAPRLLIFDASSRAGGIPDRFSGSGYGTDFTLTVNSVQSEDFGDYFCQQYEEWPRTFGQGTKVDIK
[1]
  neutralization IC50: > 50 mg/L
[2]
  neutralization IC50: > 50 mg/L
[3]
  neutralization IC50: > 50 mg/L
[4]
  neutralization IC50: > 50 mg/L
[5]
  neutralization IC50: 7.52 mg/L
[6]
  neutralization IC50: 0.034 mg/L

B8: 5329_C19 (PGT-136) (antibody, V domains shown)
VH: QLQLQESGPGLVKPSETLSLTCTVSGGSMRGTDWGENDFHYGWIRQSSAKGLEWIGSIHWRGRTTHYKTSFRSRATLSIDTSNNRFSLTFSFVTAADTAVYYCARHKYHDIFRVVPVAGWFDPWGQGLLVTVSS
VL: EIVMTQSPPTLSVSPGETATLSCRASQNVKNNLAWYQLKPGQAPRLLIFDASSRAGGIPDRFSGSGYGTDFTLTVNSVQSEDFGDYFCQQYEEWPRTFGQGTKVDIK
[7]
  IC50: 11.1 mg/L
[8]
  IC50: > 50 mg/L
[9]
  IC50: > 50 mg/L
[10]
  IC50: > 50 mg/L
[11]
  IC50: > 50 mg/L
[12]
  IC50: > 50 mg/L
[13]
  IC50: > 50 mg/L
[14]
  IC50: > 50 mg/L

B9: PGT-131 monoclonal antibody (5136_H01) (antibody, V domains shown)
VH: QVQLQESGPGLVKPSETLSLTCTVSGDSINTGHHYWGWVRQVPGKGPEWIAHIHYNTAVLHNPALKSRVTISIFTLKNLITLSLSNVTAADTAVYFCVRSGGDILYYIEWQKPHWFYPWGPGILVTVSS
VL: QSALTQPPSASGSLGQSLTISCSGTGSDIGSWNFVSWYQQFPGRAPNLIIFEVNRRRSGVPDRFSGSKSGNTASLTVSGLRSEDEAEYFCSSLSGRWDIVFGGGTKVTVL
[1]
  neutralization IC50: 1.36 mg/L
[2]
  neutralization IC50: 0.611 mg/L
[3]
  neutralization IC50: > 50 mg/L
[4]
  neutralization IC50: > 50 mg/L
[5]
  neutralization IC50: > 50 mg/L
[6]
  neutralization IC50: 3.71 mg/L

B10: 5136_H01 (PGT-131) (antibody, V domains shown)
VH: QVQLQESGPGLVKPSETLSLTCTVSGDSINTGHHYWGWVRQVPGKGPEWIAHIHYNTAVLHNPALKSRVTISIFTLKNLITLSLSNVTAADTAVYFCVRSGGDILYYIEWQKPHWFYPWGPGILVTVSS
VL: QSALTQPPSASGSLGQSLTISCSGTGSDIGSWNFVSWYQQFPGRAPNLIIFEVNRRRSGVPDRFSGSKSGNTASLTVSGLRSEDEAEYFCSSLSGRWDIVFGGGTKVTVL
[7]
  IC50: 1.01 mg/L
[8]
  IC50: > 50 mg/L
[9]
  IC50: > 50 mg/L
[10]
  IC50: > 50 mg/L
[11]
  IC50: > 50 mg/L
[12]
  IC50: > 50 mg/L
[13]
  IC50: > 50 mg/L
[14]
  IC50: > 50 mg/L

B11: PGT-137 monoclonal antibody (5345_I01) (antibody, V domains shown)
VH: EVHLEESGPGLVRPSETLSLTCTASGGSIRGGEWGDSDYHWGWVRHSPEKGLEWIGSIHWRGTTHYNAPFRGRGRLSIDLSRNQFSLRLTSVTAEDTAVYYCVKHKYHDIVMVVPIAGWFDPWGQGLQVTVSS
VL: EIMMTQSPAILSVSPGDRATLSCRASQSVKNNLAWYQKRPGQAPRLLIFDTSSRASGIPARFSGGGSGTEFTLTVNSMQSEDFATYYCQQYEEWPRTFGQGTKVEIK
[1]
  neutralization IC50: > 50 mg/L
[2]
  neutralization IC50: > 50 mg/L
[3]
  neutralization IC50: > 50 mg/L
[4]
  neutralization IC50: 8.03 mg/L
[5]
  neutralization IC50: 21.5 mg/L
[6]
  neutralization IC50: 0.026 mg/L

B12: 5345_I01 (PGT-137) (antibody, V domains shown)
VH: EVHLEESGPGLVRPSETLSLTCTASGGSIRGGEWGDSDYHWGWVRHSPEKGLEWIGSIHWRGTTHYNAPFRGRGRLSIDLSRNQFSLRLTSVTAEDTAVYYCVKHKYHDIVMVVPIAGWFDPWGQGLQVTVSS
VL: EIMMTQSPAILSVSPGDRATLSCRASQSVKNNLAWYQKRPGQAPRLLIFDTSSRASGIPARFSGGGSGTEFTLTVNSMQSEDFATYYCQQYEEWPRTFGQGTKVEIK
[7]
  IC50: 1.98 mg/L
[8]
  IC50: > 50 mg/L
[9]
  IC50: > 50 mg/L
[10]
  IC50: > 50 mg/L
[11]
  IC50: > 50 mg/L
[12]
  IC50: 0.102 mg/L
[13]
  IC50: > 50 mg/L
[14]
  IC50: > 50 mg/L
